Data reported in US20060111420A1, “Sorbicillactone-a derivatives for the treatment of tumour and viral diseases” (Johannes Gutenberg-Universitat Mainz, priority 2002, published 2006).

Columns and labels:
HIV p24 (gag-protein) = test: Expression of p24 in infected H9-cells (indirect immunofluorescence); settings: for effect on the expression of p24 (in words): infected H9-cells; for Expression of p24 (in %): control 100
HIV p15 (Gag-Protein) = test: Expression of p15 in infected H9-cells (indirect immunofluorescence); settings: for effect on the expression of p15 (in words): infected H9-cells; for Expression of p15 (in %): control 100
[1] = tested on: H9-cells infected with HTLV-IIIB (HIV-1); test: Cellular growth of HTLV-IIIB infected H9-cells; settings: for Cellular concentration × 1,000,000/ml: 4 days, infected control 0.62
[2] = tested on: HTLV-IIIB (HIV-1)-viruses in H9-cells; test: Production of reverse transcriptase (viral production) in H9-HTLV-IIIB-cells; settings: 4 days; for reverse transcriptase activity (100%): control 100

Compound | effect on the expression of p24 (in words) (HIV p24 (gag-protein)) | effect on the expression of p15 (in words) (HIV p15 (Gag-Protein)) | Cellular concentration × 1,000,000/ml ([1]; 0.1 μg/ml) | Cellular concentration × 1,000,000/ml ([1]; 0.3 μg/ml) | Cellular concentration × 1,000,000/ml ([1]; 1.0 μg/ml) | Cellular concentration × 1,000,000/ml ([1]; 3.0 μg/ml) | growth rate of H9-HTLV-IIIB-cells (in words) ([1]; 0.3 to 3.0 μg/ml, to values in the range of uninfected H9 controls) | Expression of p24 (in %) (HIV p24 (gag-protein); 0.1 μg/ml) | Expression of p24 (in %) (HIV p24 (gag-protein); 0.3 μg/ml) | Expression of p24 (in %) (HIV p24 (gag-protein); 1.0 μg/ml) | Expression of p24 (in %) (HIV p24 (gag-protein); 3.0 μg/ml) | Expression of p15 (in %) (HIV p15 (Gag-Protein); 0.1 μg/ml) | Expression of p15 (in %) (HIV p15 (Gag-Protein); 0.3 μg/ml) | Expression of p15 (in %) (HIV p15 (Gag-Protein); 1.0 μg/ml) | Expression of p15 (in %) (HIV p15 (Gag-Protein); 3.0 μg/ml) | reverse transcriptase activity (100%) ([2]; 0.1 μg/ml) | reverse transcriptase activity (100%) ([2]; 0.3 μg/ml) | reverse transcriptase activity (100%) ([2]; 1.0 μg/ml) | reverse transcriptase activity (100%) ([2]; 3.0 μg/ml) | activity of reverse transcriptase in the supernatant (in words) ([2]; H9-HTLV-IIIB-cells)
C/C=C/C=C/C(O)=C1/C(=O)C(C)=C(O)C2(C)OC(=O)C(C)(NC(=O)C3NN=CC3C(=O)OC)C12 (stereo not shown) [SOA-D1] | strong inhibiting effect | strong inhibiting effect | – | – | – | – | – | – | – | – | – | – | – | – | – | – | – | – | – | –
C/C=C/C=C/C(O)=C1/C(=O)C(C)=C(O)[C@@]2(C)OC(=O)[C@@](C)(NC(=O)/C=C/C(=O)O)[C@@H]12 [Sorbicillacton A, sorbicillacton A] | strong inhibiting effect | strong inhibiting effect | 0.68 × 1,000,000/ml | 0.83 × 1,000,000/ml | 1.39 × 1,000,000/ml | 0.92 × 1,000,000/ml | increases the growth rate | 93% | 42% | 28% | 24% | 98% | 65% | 31% | 47% | 83% | 28% | 22% | 14% | dose-dependent reduction
